Values from PubChem BioAssay AID624099 (ICCB-Longwood, 2012)
Shown is a random part of about 21,000 reagents tested. Over the whole deposit, 497 (2.4%) are marked active. 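Higher z means weaker E2 silencing; only reporter increases were scored, and knock-downs that hurt cell survival may mask genuine repressor factors.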 Unmarked entries are inactive. No sequences are given here.

Purpose: 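Knock-downs relieving repression by E2 of an HPV18 LCR luciferase reporter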 (primary screen)
Cell system: human C33A cervical carcinoma cells (HPV-negative) stably expressing BPV1 E2 and an HPV18 LCR luciferase reporter
Reagent: siRNA pool against human genes, 40 nM
Time to read-out: 72 h
Read-out: 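HPV18 LCR reporter light per well, converted to plate-wise z-scores that exclude control wells, and averaged over triplicate plates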
Reading the numbers: mean z-score and z-score: higher = stronger reporter signal, weaker E2 silencing
Active means: 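Mean z ≥ 2 together with z ≥ 2 in two or more of the three replicates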

How did the screen score TARS1?
mean z-score: -0.72; z-score, replicate A: -0.61; z-score, replicate B: -0.84; z-score, replicate C: -0.71

How did the screen score CCL5?
mean z-score: 0.18; z-score, replicate A: 0.17; z-score, replicate B: 0.16; z-score, replicate C: 0.2

Which result is listed for ZNF354A?
mean z-score: -0.38; z-score, replicate A: -0.43; z-score, replicate B: -0.5; z-score, replicate C: -0.21

What did the screen give for LRFN2?
mean z-score: -1.8; z-score, replicate A: -1.9; z-score, replicate B: -1.87; z-score, replicate C: -1.65

With TGM2, what was measured?
mean z-score: 0.22; z-score, replicate A: 0.32; z-score, replicate B: 0.08; z-score, replicate C: 0.26

Which result is listed for TIAL1?
mean z-score: -0.05; z-score, replicate A: -0.01; z-score, replicate B: -0.14; z-score, replicate C: 0.01

With MTMR9LP, what does the deposit list?
mean z-score: 0.1; z-score, replicate A: 0.15; z-score, replicate B: -0.05; z-score, replicate C: 0.18

How did the screen score RRAGC?
mean z-score: 1.97; z-score, replicate A: 2.18; z-score, replicate B: 2.04; z-score, replicate C: 1.68

For LRRC8B, what was measured?
mean z-score: 0.73; z-score, replicate A: 0.46; z-score, replicate B: 1; z-score, replicate C: 0.73

How did the screen score CLDN20?
mean z-score: 0.16; z-score, replicate A: 0.31; z-score, replicate B: -0.13; z-score, replicate C: 0.32

With CCDC191, how do the results read?
mean z-score: -0.16; z-score, replicate A: 0.04; z-score, replicate B: -0.28; z-score, replicate C: -0.25

For MYRFL, what does the deposit list?
mean z-score: -0.39; z-score, replicate A: 0.04; z-score, replicate B: -0.82; z-score, replicate C: -0.37

2 entries already listed, sorted by “z-score, replicate C”, high to low:
LRRC8B: mean z-score = 0.73; z-score, replicate A = 0.46; z-score, replicate B = 1; z-score, replicate C = 0.73
CLDN20: mean z-score = 0.16; z-score, replicate A = 0.31; z-score, replicate B = -0.13; z-score, replicate C = 0.32
